Broadly, the MIC is the smallest concentration in the dilution series that meets the test's criterion for growth inhibition. A higher MIC goes with a less susceptible organism.

≈ marks a conversion by molar mass, not a printed value.

What all share (format): functional
Assay [1] has as its system Mycobacterium tuberculosis. Nature of the assay: Antimycobacterial activity against Mycobacterium tuberculosis My 331/88 after 14 days by micromethod.
Assay [2] deals with Mycobacterium avium. Briefly: Antimycobacterial activity against Mycobacterium avium My 330/88 after 14 days by micromethod.
Assay [3] relates to Mycobacterium tuberculosis. Briefly: Antimycobacterial activity against Mycobacterium tuberculosis My 331/88 after 21 days by micromethod.
The test system of assay [4] is Mycobacterium avium. Nature of the assay: Antimycobacterial activity against Mycobacterium avium My 330/88 after 21 days by micromethod.
Assay [5] concerns Mycobacterium kansasii. Nature of the assay: Antimycobacterial activity against Mycobacterium kansasii My 235/80 after 7 days by micromethod.
In assay [6] the test system is Mycobacterium kansasii. Nature of the assay: Antimycobacterial activity against Mycobacterium kansasii My 235/80 after 14 days by micromethod.
In assay [7] the test system is Mycobacterium kansasii. Nature of the assay: Antimycobacterial activity against Mycobacterium kansasii My 235/80 after 21 days by micromethod.
Assay [8] relates to Mycobacterium kansasii. Nature of the assay: Antimycobacterial activity against Mycobacterium kansasii 6509/96 after 7 days by micromethod.
Assay [9] relates to Mycobacterium kansasii. Briefly: Antimycobacterial activity against Mycobacterium kansasii 6509/96 after 14 days by micromethod.
The subject of assay [10] is Mycobacterium kansasii. Nature of the assay: Antimycobacterial activity against Mycobacterium kansasii 6509/96 after 21 days by micromethod.

As to `O=[N+]([O-])c1ccc(C[Se]c2nnn(Cc3ccc([N+](=O)[O-])cc3[N+](=O)[O-])n2)c([N+](=O)[O-])c1`, the MIC in assay [1] came out at 2 µM (≈ 1.02 µg/mL); in the assay on Mycobacterium avium [2], 16 µM (≈ 8.15 µg/mL); in assay [3] it was 4 µM (≈ 2.04 µg/mL); against Mycobacterium avium [4], 32 µM (≈ 16.3 µg/mL); in the assay on Mycobacterium kansasii [5], 16 µM (≈ 8.15 µg/mL); in the assay on Mycobacterium kansasii [6], 32 µM (≈ 16.3 µg/mL). Further, the MIC with Mycobacterium kansasii [7] came to 62 µM (≈ 31.6 µg/mL); against Mycobacterium kansasii [8], 32 µM (≈ 16.3 µg/mL); against Mycobacterium kansasii [9], 62 µM (≈ 31.6 µg/mL); against Mycobacterium kansasii [10], 62 µM (≈ 31.6 µg/mL).
In the case of `O=[N+]([O-])c1cc(Cn2nnnc2[Se]Cc2ccc([N+](=O)[O-])cc2[N+](=O)[O-])cc([N+](=O)[O-])c1`, the MIC in assay [1] amounted to 16 µM (≈ 8.15 µg/mL); against Mycobacterium avium [2], 250 µM (≈ 127 µg/mL); in [3], 16 µM (≈ 8.15 µg/mL); against Mycobacterium avium [4], 250 µM (≈ 127 µg/mL); against Mycobacterium kansasii [5], 16 µM (≈ 8.15 µg/mL); in the assay on Mycobacterium kansasii [6] it was 32 µM (≈ 16.3 µg/mL). In addition, the MIC was 62 µM (≈ 31.6 µg/mL) against Mycobacterium kansasii [7], 32 µM (≈ 16.3 µg/mL) against Mycobacterium kansasii [8], 62 µM (≈ 31.6 µg/mL) against Mycobacterium kansasii [9] and 62 µM (≈ 31.6 µg/mL) against Mycobacterium kansasii [10].
With `O=[N+]([O-])c1cc(C[Se]c2nnn(Cc3cc([N+](=O)[O-])cc([N+](=O)[O-])c3)n2)cc([N+](=O)[O-])c1`, the minimum inhibitory concentration (MIC) was determined as 1 µM (≈ 0.509 µg/mL) in [1]; 125 µM (≈ 63.7 µg/mL) in the assay with Mycobacterium avium [2]; 1 µM (≈ 0.509 µg/mL) in [3]; 125 µM (≈ 63.7 µg/mL) against Mycobacterium avium [4]; 2 µM (≈ 1.02 µg/mL) in the assay with Mycobacterium kansasii [5]; 4 µM (≈ 2.04 µg/mL) against Mycobacterium kansasii [6]. Besides, the MIC amounted to 8 µM (≈ 4.07 µg/mL) with Mycobacterium kansasii [7], 2 µM (≈ 1.02 µg/mL) against Mycobacterium kansasii [8], 4 µM (≈ 2.04 µg/mL) against Mycobacterium kansasii [9] and 8 µM (≈ 4.07 µg/mL) against Mycobacterium kansasii [10].
With `O=[N+]([O-])c1ccc(CSc2nnnn2Cc2cc([N+](=O)[O-])cc([N+](=O)[O-])c2)cc1`, the MIC stood at 8 µM (≈ 3.34 µg/mL) in [1]; 250 µM (≈ 104 µg/mL) in the assay on Mycobacterium avium [2]; 8 µM (≈ 3.34 µg/mL) in assay [3]; 250 µM (≈ 104 µg/mL) in the assay on Mycobacterium avium [4]; 4 µM (≈ 1.67 µg/mL) against Mycobacterium kansasii [5]; 8 µM (≈ 3.34 µg/mL) against Mycobacterium kansasii [6]. For the same compound, the MIC in the assay on Mycobacterium kansasii [7] is 16 µM (≈ 6.68 µg/mL); against Mycobacterium kansasii [8], 16 µM (≈ 6.68 µg/mL); in the assay on Mycobacterium kansasii [9], 16 µM (≈ 6.68 µg/mL); against Mycobacterium kansasii [10], 32 µM (≈ 13.4 µg/mL).
Take `O=[N+]([O-])c1ccc(Cn2nnc([Se]Cc3cc([N+](=O)[O-])cc([N+](=O)[O-])c3)n2)cc1`: the MIC was 1 µM (≈ 0.464 µg/mL) in assay [1]; 125 µM (≈ 58 µg/mL) against Mycobacterium avium [2]; 1 µM (≈ 0.464 µg/mL) in assay [3]; 125 µM (≈ 58 µg/mL) in the assay on Mycobacterium avium [4]; 1 µM (≈ 0.464 µg/mL) against Mycobacterium kansasii [5]; 2 µM (≈ 0.929 µg/mL) in the assay on Mycobacterium kansasii [6]. In addition, the MIC stood at 4 µM (≈ 1.86 µg/mL) in the assay on Mycobacterium kansasii [7], 2 µM (≈ 0.929 µg/mL) in the assay with Mycobacterium kansasii [8], 4 µM (≈ 1.86 µg/mL) against Mycobacterium kansasii [9] and 4 µM (≈ 1.86 µg/mL) in the assay with Mycobacterium kansasii [10].
Consider `O=[N+]([O-])c1ccc(C[Se]c2nnnn2Cc2cc([N+](=O)[O-])cc([N+](=O)[O-])c2)cc1`, for which the MIC was found to be 8 µM (≈ 3.71 µg/mL) in assay [1]; 250 µM (≈ 116 µg/mL) against Mycobacterium avium [2]; 8 µM (≈ 3.71 µg/mL) in assay [3]; 250 µM (≈ 116 µg/mL) against Mycobacterium avium [4]; 16 µM (≈ 7.43 µg/mL) in the assay with Mycobacterium kansasii [5]; 32 µM (≈ 14.9 µg/mL) in the assay on Mycobacterium kansasii [6]. The minimal inhibitory concentration (MIC) against Mycobacterium kansasii [7] is 32 µM (≈ 14.9 µg/mL); with Mycobacterium kansasii [8] it was 32 µM (≈ 14.9 µg/mL); with Mycobacterium kansasii [9], 32 µM (≈ 14.9 µg/mL); in the assay with Mycobacterium kansasii [10], 62 µM (≈ 28.8 µg/mL).
As to `O=[N+]([O-])c1ccc(C[Se]c2nnn(Cc3cc([N+](=O)[O-])cc([N+](=O)[O-])c3)n2)cc1`, the MIC in assay [1] is 32 µM (≈ 14.9 µg/mL); in the assay on Mycobacterium avium [2], 250 µM (≈ 116 µg/mL); in assay [3] it was 32 µM (≈ 14.9 µg/mL); with Mycobacterium avium [4], 250 µM (≈ 116 µg/mL); in the assay with Mycobacterium kansasii [5] it was 32 µM (≈ 14.9 µg/mL); with Mycobacterium kansasii [6], 62 µM (≈ 28.8 µg/mL). In addition, the MIC worked out at 62 µM (≈ 28.8 µg/mL) against Mycobacterium kansasii [7], 32 µM (≈ 14.9 µg/mL) with Mycobacterium kansasii [8], 62 µM (≈ 28.8 µg/mL) against Mycobacterium kansasii [9] and 62 µM (≈ 28.8 µg/mL) against Mycobacterium kansasii [10].
For `O=[N+]([O-])c1cc(Cn2nnnc2SCc2ccc([N+](=O)[O-])cc2[N+](=O)[O-])cc([N+](=O)[O-])c1`, the MIC in [1] amounted to 4 µM (≈ 1.85 µg/mL); against Mycobacterium avium [2] it was 16 µM (≈ 7.4 µg/mL); in [3] it was 4 µM (≈ 1.85 µg/mL); against Mycobacterium avium [4], 32 µM (≈ 14.8 µg/mL); against Mycobacterium kansasii [5] it was 32 µM (≈ 14.8 µg/mL); against Mycobacterium kansasii [6], 62 µM (≈ 28.7 µg/mL). The MIC was 62 µM (≈ 28.7 µg/mL) in the assay with Mycobacterium kansasii [7], 16 µM (≈ 7.4 µg/mL) in the assay with Mycobacterium kansasii [8], 32 µM (≈ 14.8 µg/mL) in the assay with Mycobacterium kansasii [9] and 62 µM (≈ 28.7 µg/mL) against Mycobacterium kansasii [10].
As to `O=[N+]([O-])c1ccc(Cn2nnnc2[Se]Cc2cc([N+](=O)[O-])cc([N+](=O)[O-])c2)cc1`, the minimal inhibitory concentration (MIC) turned out to be 2 µM (≈ 0.929 µg/mL) in [1]; 125 µM (≈ 58 µg/mL) in the assay on Mycobacterium avium [2]; 4 µM (≈ 1.86 µg/mL) in assay [3]; 125 µM (≈ 58 µg/mL) against Mycobacterium avium [4]; 4 µM (≈ 1.86 µg/mL) in the assay with Mycobacterium kansasii [5]; 16 µM (≈ 7.43 µg/mL) in the assay with Mycobacterium kansasii [6]. Besides, the MIC was found to be 32 µM (≈ 14.9 µg/mL) against Mycobacterium kansasii [7], 4 µM (≈ 1.86 µg/mL) in the assay with Mycobacterium kansasii [8], 8 µM (≈ 3.71 µg/mL) against Mycobacterium kansasii [9] and 16 µM (≈ 7.43 µg/mL) against Mycobacterium kansasii [10].
As to `O=[N+]([O-])c1cc(C[Se]c2nnnn2Cc2ccc([N+](=O)[O-])cc2[N+](=O)[O-])cc([N+](=O)[O-])c1`, the MIC was 4 µM (≈ 2.04 µg/mL) in assay [1]; 125 µM (≈ 63.7 µg/mL) with Mycobacterium avium [2]; 8 µM (≈ 4.07 µg/mL) in [3]; 125 µM (≈ 63.7 µg/mL) against Mycobacterium avium [4]; 8 µM (≈ 4.07 µg/mL) against Mycobacterium kansasii [5]; 32 µM (≈ 16.3 µg/mL) against Mycobacterium kansasii [6]. Further, the MIC in the assay with Mycobacterium kansasii [7] was 62 µM (≈ 31.6 µg/mL); against Mycobacterium kansasii [8] it was 4 µM (≈ 2.04 µg/mL); with Mycobacterium kansasii [9] it was 16 µM (≈ 8.15 µg/mL); in the assay with Mycobacterium kansasii [10] it was 32 µM (≈ 16.3 µg/mL).

Values taken from ChEMBL document CHEMBL3621085, “Tetrazole regioisomers in the development of nitro group-containing antitubercular agents” (Medchemcomm, 2015).
